Tests used:
[1] = system: Francisella tularensis MEP synthase S177D mutant, C-terminal His-tagged, Francisella tularensis subsp. holarctica LVS, Q2A4P9 1-385; test: SEC
[2] = system: Francisella tularensis MEP synthase S177E mutant, C-terminal His-tagged, Francisella tularensis subsp. holarctica LVS, Q2A4P9 1-385; test: SEC

| Substance | stoichiometry N [1] | stoichiometry N [2] |
| --- | --- | --- |
| Francisella tularensis MEP synthase S177D mutant, C-terminal His-tagged | 2 |  |
| Francisella tularensis MEP synthase S177E mutant, C-terminal His-tagged |  | 2 |
